Patent publication US20220306702

Molecular target: GST-TAB2 protein substrate [GST: P08515]

B1: mutant NleE R107A (protein)
chain: MINPVTNTQGVSPINTKYAEHVVKNIYPEIKHDYFNESPNIYDKKYISGITRGVAELKQEEFVNEKARRFSYMKTMYSVCPEAFEPISRNEASTPEGSWLTVISGKAPMGQFSVDSLYNPDLHALCELPDICCKIFPKENNDFLYIVVVYRNDSPLGEQRANRFIELYNIKRDIMQELNYELPELKAVKSEMIIAREMGEIFSYMPGEIDSYMKYINNKLSKIE
- methylase activity (MTase glo assay): the presence of an R107A mutation in NLeE abolished methylase activity
